Pooled drug test results. Numbers come from NIAID ChemDB, via PubChem.

All rows: target-level tests

An empty or dashed field is not shown. ICn is the concentration giving n% inhibition. Inhibition is in % at the dose shown (toxicity tests: loss of growth or viability). Neighbouring rows are from separate reports.

SMILES | read-out | dose | protein | strain or isolate | organism | value
Nc1ncnc2c1ncn2[C@@H]1O[C@H](COC(=O)c2ccc(S(=O)(=O)F)cc2)[C@@H](O)[C@H]1O | inhibition | 300 µM | NTPase/helicase |  | Japanese encephalitis virus | 29%
COC(=O)C1c2cc3c(c(O)c2C(O)CC1(C)O)C(=O)c1c(O)cc2c(c1C3=O)OC1OC2(C)C(O)C(N(C)C)C1O | IC50 |  | NTPase/helicase |  | Japanese encephalitis virus | 3.8 µM
CCC(CC)Oc1cc(C(=O)O)ccc1NC(C)=O | IC50 |  | Neuraminidase | H1N9 | Influenza A virus | 37 µM
CC(=O)NC(C(=O)N1CCSCC1)[C@H]1CC(C(=O)O)C[C@@H]1N=C(N)N | IC50 |  | Neuraminidase |  | Influenza A virus (H6N2) | 0.23 µM
CC(C)[C@H](Cc1ccc(OCC(=O)O)cc1)NC(=O)c1ccc2c(c1)nc(-c1ccoc1)n2C1CCCCC1 | IC50 |  | RNA-dependent RNA polymerase |  | Poliovirus | >25 µM
NC(=O)c1ncn([C@@H]2O[C@H](COC(=O)c3ccc(S(=O)(=O)F)cc3)[C@@H](O)[C@H]2O)n1 | inhibition | 300 µM | NTPase/helicase |  | Japanese encephalitis virus | 20%
CCCN(C)C(=O)C(NC(C)=O)[C@H]1CC(C(=O)O)C[C@@H]1N=C(N)N | IC50 |  | Neuraminidase |  | Influenza A virus (H6N2) | 0.94 µM
O=C(N[C@@H](Cc1ccc(O)cc1)C(=O)Nc1cccnc1)c1ccc2c(c1)nc(-c1ccoc1)n2C1CCCCC1 | IC50 |  | RNA-dependent RNA polymerase |  | Poliovirus | >25 µM
CCC(CC)C(=O)Nc1cc(C(=O)O)ccc1NC(C)=O | IC50 |  | Neuraminidase | H1N9 | Influenza A virus | 27 µM
Cc1cc(OCC(=O)O)cc(C)c1CC(NC(=O)c1ccc2c(c1)nc(-c1ccoc1)n2C1CCCCC1)C(=O)O | IC50 |  | RNA-dependent RNA polymerase |  | Poliovirus | >25 µM
CC(=O)Nc1ccc(C(=O)O)cc1N | IC50 |  | Neuraminidase | N2 (A/TOKYO/67) | Influenza A virus | >10000 µM
CCCCNC(=O)C(NC(C)=O)[C@H]1CC(C(=O)O)C[C@@H]1N=C(N)N | IC50 |  | Neuraminidase |  | Influenza A virus (H6N2) | 9.9 µM
Cc1cc(O)cc(C)c1CC(NC(=O)c1ccc2c(c1)nc(-c1ccoc1)n2C1CCCCC1)C(=O)O | IC50 |  | RNA-dependent RNA polymerase |  | Poliovirus | >25 µM
CC(=O)NC(C(=O)NC(C)CC(C)C)[C@H]1CC(C(=O)O)C[C@@H]1N=C(N)N | IC50 |  | Neuraminidase |  | Influenza A virus (H6N2) | 8.4 µM
O=C(COc1ccc(-c2nc3cc(C(=O)O)ccc3n2C2CCCCC2)cc1)NCc1ccccc1 | IC50 |  | RNA-dependent RNA polymerase |  | Poliovirus | >25 µM

A second listing of 2 rows from above:

Nc1ncnc2c1ncn2[C@@H]1O[C@H](COC(=O)c2ccc(S(=O)(=O)F)cc2)[C@@H](O)[C@H]1O ; read-out: inhibition ; dose: 300 µM ; protein: NTPase/helicase ; organism: Japanese encephalitis virus ; value: 29%
O=C(COc1ccc(-c2nc3cc(C(=O)O)ccc3n2C2CCCCC2)cc1)NCc1ccccc1 ; read-out: IC50 ; protein: RNA-dependent RNA polymerase ; organism: Poliovirus ; value: >25 µM